Assay: Palatability feeding experiment of pig
Format: in vivo
Settings: pigs; tilmicosin 400 mg/kg feed; decreased from about 1.4 kg/d

## CC[C@H]1OC(=O)C[C@@H](O)[C@H](C)[C@@H](O[C@@H]2O[C@H](C)[C@@H](O)[C@H](N(C)C)[C@H]2O)[C@@H](CCN2C[C@H](C)C[C@H](C)C2)C[C@@H](C)C(=O)/C=C/C(C)=C/[C@@H]1CO[C@@H]1O[C@H](C)[C@@H](O)[C@@H](OC)[C@H]1OC [tilmicosin, Tilmicosin]
  average daily feed intake during the feeding experiment: about 0.9 kg/d

Source: publication PMC7466129, “Solid Lipid Nanoparticles for Duodenum Targeted Oral Delivery of Tilmicosin” (Pharmaceutics, 2020)
